Measured values from several laboratories, pooled; numbers as filed in NIAID ChemDB.

Common to all: growth or infection tests; organism: Hepatitis C virus; measure: EC50

ECn is the concentration giving n% inhibition of infection, replication or growth. Blank or dashed fields: not listed here. Rows are shuffled and stem from different studies.

compound,cells,read by,strain or isolate,value
CCCC(NC(=O)C1C2CCCC2CN1C(=O)C(C)N1CCCCCC1)C(=O)C(=O)NC1CC1,-,replicon,1b,<100 µM
O=C(Nc1cccc(-c2cc(-c3c(N4CCOCC4)cccc3C(F)(F)F)no2)c1)C(Cl)Cl,-,replicon,-,≤10 µM
COc1cc(OC)c2c(=O)cc(-c3ccc(N4CCN(c5ccccn5)CC4)c(N)c3)oc2c1,Huh-Luc-Neo,luciferase / reporter gene,1b,>20 µM
C=CC1C[C@]1(NC(=O)[C@@H]1C[C@@H](Oc2cc(-c3ccccc3)nc3cc(OC)ccc23)CN1C(=O)[C@H](c1ccccc1)N1CCCCC1)C(=O)NS(=O)(=O)C1CC1,-,replicon,1b,<100 µM
CNC(=O)c1c(-c2ccc(Br)cc2)oc2ccc(OC(C)C)cc12,Huh7,replicon,-,<10 µM
C=CC1CC1(NC(=O)[C@@H]1C[C@@H](Oc2cc(-c3ccccc3)nc3cc(OC)ccc23)CN1C(=O)[C@H](C1CCCCC1)N1CCCCC1)C(=O)O,-,replicon,1b,<100 µM
COc1cc(OC)c2c(=O)cc(-c3ccc(N4CCN(c5nc6ccccc6o5)CC4)c(N)c3)oc2c1,Huh-Luc-Neo,luciferase / reporter gene,1b,1.5 µM
CCOC(C)(C)[C@@H](O)CC[C@@H](C)[C@H]1CC[C@@]2(C)[C@@H]3CC[C@H]4C(C)(C)[C@@H](O)CC[C@]4(C)C3=CC[C@]12C,n4mBid cells,ATP,Jc1,>100 µM
Nc1nc2cnc(N3CCC(Oc4cc(F)ccc4Br)CC3)nc2s1,Huh7,PCR,GT1a,0.01 µM
COC(=O)N[C@H](C(=O)N1CCC[C@H]1C(=O)Cc1ccc(-c2ccc(NC(=O)[C@@H]3CCCN3C(=O)[C@@H](NC(=O)OC)C(C)C)cc2)cc1)C(C)C,Huh7.5.1,luciferase / reporter gene,GT2a,0.12 µM
COc1cc(Cc2cnc(/N=C3\C(=O)N(CN4CCN(c5c(F)cc6c(=O)c(C(=O)O)cn(C7CC7)c6c5OC)CC4C)c4ccc(F)cc43)nc2N)cc(OC)c1OC,Huh7,-,-,<50 µg/mL
CCCC(NC(=O)C1C2CCCC2CN1C(=O)C(c1ccccc1)N1CCCCC1)C(=O)C(=O)NC1CC1,-,replicon,1b,<100 µM
COc1cc(Cc2cnc(/N=C3\C(=O)N(CN4CCC(C)CC4)c4ccc(F)cc43)nc2N)cc(OC)c1OC,Huh7,-,-,<50 µg/mL
CC(C)OP1(=O)CC(n2ccc(N)nc2=O)O[C@@H]1COCc1ccccc1,Huh7,luciferase / replicon,ZS11 (gt 1b),>10 µM
COc1ccc(-c2nc3ccc(NCc4ccc(Cl)c(C(F)(F)F)c4)cc3n(CCNC(C)=O)c2=O)cc1,Huh7,PCR,GT1b,0.012 µM
COc1cc(Cc2cnc(/N=C3\C(=O)N(CN4CCN(Cc5ccccc5)CC4)c4ccc(F)cc43)nc2N)cc(OC)c1OC,Huh7,-,-,<50 µg/mL
COc1cccc(Cl)c1-c1cc(-c2cccc(NC(=O)C(Cl)Cl)c2)on1,-,replicon,-,≤10 µM
C=C[C@@H]1C[C@]1(NC(=O)C1C[C@@H](Oc2cc(-c3csc(NC4CCC4)n3)nc3cc(OC)ccc23)CN1C(=O)[C@@H](NC(=O)OC1CCCC1)C(C)(C)C)C(=O)O,Huh7,-,-,<0.5 µM
Nc1cc(-c2cc(=O)c3c(O)cc(O)cc3o2)ccc1N1CCN(c2ccccc2)CC1,Huh-Luc-Neo,luciferase / reporter gene,1b,>20 µM
C=CC1C[C@@]1(NC(=O)[C@@H]1C[C@@H](Oc2cc(-c3ccccc3)nc3cc(OC)ccc23)CN1C(=O)[C@H](c1ccccc1)N1CCCCC1)C(=O)NS(=O)(=O)C1CC1,-,replicon,1b,<100 µM
C=C(C)COc1ccc([C@H]2C3=C(CC(C)(C)CS3(=O)=O)Nc3c(O)cccc3N2C(=O)Cc2ccccc2C)c(F)c1,-,-,1b,14.9 µM
CCOC(=O)C1CCN(c2cccc(Cl)c2-c2cc(-c3cccc(NC(=O)C(Cl)Cl)c3)on2)CC1,-,replicon,-,>10 µM
CNC(=O)c1c(-c2ccc(F)cc2)oc2cc(N3CCCS3(=O)=O)c(OC(C)C)cc12,Huh7,replicon,-,<10 µM
Cc1c(NC(=O)C(Cl)Cl)cccc1-c1cc(-c2c(Cl)cccc2Cl)no1,-,replicon,-,>10 µM
COc1c(-c2cccc3ccccc23)cnn([C@@H]2C[C@H]3C(=O)N[C@]4(C(=O)NS(=O)(=O)C5CC5)CC4/C=C\CCCCCC[C@H](NC(=O)c4cccs4)C(=O)N3C2)c1=O,-,replicon,1b,0.0002 µM
CNC(=O)c1c(-c2ccc(F)cc2)oc2cc(OCc3ccccc3)c(OC)cc12,Huh7,replicon,-,<10 µM
CC1(C)CC[C@@]2(C(=O)NCc3cn(Cc4ccc(Cn5cc(CNC(=O)[C@]67CCC(C)(C)CC6C6=CCC8[C@@]9(C)CC[C@H](O)C(C)(C)C9CC[C@@]8(C)[C@]6(C)C[C@H]7O)nn5)cc4)nn3)C(C1)C1=CCC3[C@@]4(C)CC[C@H](O)C(C)(C)C4CC[C@@]3(C)[C@]1(C)C[C@H]2O,Huh7,luciferase / entry,-,0.003 µM
CNC(=O)c1c(-c2ccc(F)cc2)oc2cc(N3CCOCC3)c(OC(C)c3ccc(F)cc3)cc12,Huh7,replicon,-,<1 µM
O=C(Cc1ccc(-c2ccc(NC(=O)[C@@H]3CCCN3C(=O)[C@H]3CCCO3)cc2)cc1)[C@@H]1CCCN1C(=O)[C@H]1CCCO1,Huh7.5.1,luciferase / reporter gene,GT2a,0.4 µM
CO[C@@H]1CC[C@]2(C)C3=CC[C@]4(C)[C@@H]([C@H](C)CC[C@H](O)C(C)(C)O)CC[C@@]4(C)[C@@H]3CC[C@H]2C1(C)C,n4mBid cells,ATP,Jc1,3.73 µM
COc1cccc(F)c1-c1cc(-c2cccc(NC(=O)C(Cl)Cl)c2)on1,-,replicon,-,≤10 µM
COc1cc(Cc2cnc(/N=C3\C(=O)N(CN4CCN(c5cc6c(cc5F)c(=O)c(C(=O)O)cn6C5CC5)CC4)c4ccc(F)cc43)nc2N)cc(OC)c1OC,Huh7,-,-,<50 µg/mL
CNC(=O)c1c(-c2ccc(F)cc2)oc2cc(-c3c(C)noc3C)c(OCc3nnnn3C)cc12,Huh7,replicon,-,<1 µM
CCOC(=O)[C@]12C[C@@H]1/C=C\CCCCC[C@H](N1CCCCC1)C(=O)N1C[C@H](Oc3cc(-c4ccccc4)nc4cc(OC)ccc34)C[C@H]1C(=O)N2,-,replicon,1b,<100 µM
COC(=O)N[C@@H](CC(C)(C)C)C(=O)N1CCC[C@H]1C(=O)Cc1ccc(-c2ccc(NC(=O)[C@@H]3CCCN3C(=O)[C@H](CC(C)(C)C)NC(=O)OC)cc2)cc1,Huh7.5.1,luciferase / reporter gene,GT2a,0.024 µM
C=C1CC[C@@](C)([C@H](C)C[C@@H]2C=C(C)C(=O)O2)[C@@]12CCC1=C2CC[C@H]2C(C)(C)C(=O)CC[C@]12C,n4mBid cells,ATP,Jc1,>100 µM
CNC(=O)c1c(-c2ccc(F)cc2)oc2cc(S(=O)(=O)N3CCOCC3)c(OC(C)C)cc12,Huh7,replicon,-,<10 µM
CC1(C)CC2=C(C(c3ccc(OCc4ccccc4)c(Cl)c3)N(C(=O)Cc3ccccc3)c3cccc(O)c3N2)S(=O)(=O)C1,-,-,1b,0.7999 µM
CNC(=O)c1c(-c2ccc(F)cc2)oc2cc(NS(C)(=O)=O)c(-c3ccco3)cc12,Huh7,replicon,-,<1 µM
C=C[C@@H]1C[C@]1(NC(=O)C1C[C@@H](Oc2cc(-c3csc(NC4CCCC4)n3)nc3cc(OC)ccc23)CN1C(=O)[C@@H](NC(=O)OC1CCCC1)C(C)(C)C)C(=O)O,Huh7,-,-,<0.5 µM

4 of the rows above, restated:

compound,cells,read by,strain or isolate,value
CNC(=O)c1c(-c2ccc(F)cc2)oc2cc(-c3c(C)noc3C)c(OCc3nnnn3C)cc12,Huh7,replicon,-,<1 µM
CC1(C)CC2=C(C(c3ccc(OCc4ccccc4)c(Cl)c3)N(C(=O)Cc3ccccc3)c3cccc(O)c3N2)S(=O)(=O)C1,-,-,1b,0.7999 µM
CC1(C)CC[C@@]2(C(=O)NCc3cn(Cc4ccc(Cn5cc(CNC(=O)[C@]67CCC(C)(C)CC6C6=CCC8[C@@]9(C)CC[C@H](O)C(C)(C)C9CC[C@@]8(C)[C@]6(C)C[C@H]7O)nn5)cc4)nn3)C(C1)C1=CCC3[C@@]4(C)CC[C@H](O)C(C)(C)C4CC[C@@]3(C)[C@]1(C)C[C@H]2O,Huh7,luciferase / entry,-,0.003 µM
C=CC1C[C@@]1(NC(=O)[C@@H]1C[C@@H](Oc2cc(-c3ccccc3)nc3cc(OC)ccc23)CN1C(=O)[C@H](c1ccccc1)N1CCCCC1)C(=O)NS(=O)(=O)C1CC1,-,replicon,1b,<100 µM